A mixed list of measured activities; the numbers were collected in NIAID ChemDB.

Shared fields: growth or infection tests; organism: Mycobacterium tuberculosis

a–b is a range or a potency band. MIC bound comes from a single tested concentration. An empty or dashed field is not shown. A number after MIC or MFC names an inhibition level or a share of isolates. Inhibition is in % at the dose shown (toxicity tests: loss of growth or viability). Lines come from different laboratories, so protocols vary. ECn: concentration that inhibits the pathogen or its effect by n%.

smiles	method	setting	measure	cell line	dose	strain	changes	value
O=C(NCCO)c1cccnc1	BACTEC		MIC			H37Rv		≥12.5 µg/mL
C[C@@H]1CN(c2c(F)c(N)c3c(=O)c(C(=O)O)cn(C4CC4)c3c2F)C[C@H](C)N1			MIC			92-0492 MDR (INH RIF-resistant)		0.2 µg/mL
CO[C@H]1/C=C/O[C@@]2(C)Oc3c(C)c(O)c4c(O)c(c5c(c4c3C2=O)NC2(CCN(CC(C)C)CC2)N=5)=NC(=O)/C(C)=C\C=C\[C@H](C)[C@H](O)[C@@H](C)[C@@H](O)[C@@H](C)[C@H](OC(C)=O)[C@@H]1C			MBC			2242 (rifampicin-susceptible)		0.125 µg/mL
Cc1ccc(C)n1CCn1c(C)ccc1C			MIC			H37Rv		>100 µg/mL
O=[N+]([O-])C1=CC(=N/Cl)/C=CC/1=N\Cl	BACTEC		MIC bound			H37Rv		>12.5 µg/mL
CC(N)COc1ccccc1			MIC			H37Rv		500 µg/mL
O=C1CN(CCN2CC(=O)N(Cc3ccccc3)C(=O)C2)CC(=O)N1Cc1ccccc1	resazurin		MIC bound			H37Rv		>6.25 µg/mL
CCn1c(C)c(C(=O)NCCOC)sc1=S	resazurin		MIC			18b		>16 µg/mL
N[C@@H]1CONC1=O			MIC			90-0216 (drug-susceptible)		75 µg/mL
C/C(=N\Nc1nc2ccccc2s1)c1ccc2c(c1)Sc1ccccc1O2			MIC			H37Rv		>12.5 µg/mL
O=C(Nc1ccc(Cl)c2c1C(=O)c1ccccc1C2=O)c1ccccc1			MIC			H37Rv		>100 µg/mL
COC(=O)C1(O)c2ccccc2N=C2C(=O)c3ccccc3N21	resazurin		MIC bound			H37Rv		>6.25 µg/mL
NNC(=O)c1ccncc1			MIC			Isolate 6		4 µg/mL
O=C(N/N=C/c1ccc(O)cc1)c1ccc(F)cc1			MIC			H37Rv		>6.25 µg/mL
COC(=O)c1cccc2c1Oc1ccccc1S2	BACTEC		MIC bound			H37Rv		>12.5 µg/mL
COc1cc(-n2c(C)ccc2-c2ccccc2)c2ncccc2c1			MIC			H37Rv		>100 µg/mL
CCOC(=O)C1C2C=CC3CC(=O)N(C(C)c4ccccc4)C31O2	resazurin		MIC			Clinical isolate		16 µg/mL
O=C(/C=C/c1ccc(Cl)cc1)Oc1ccc(/C=C2\CCC/C(=C\c3ccc(OC(=O)/C=C/c4ccc(Cl)cc4)cc3)C2=O)cc1			inhibition		12.5 µg/mL	H37Rv		0%
CO[C@H]1/C=C/O[C@@]2(C)Oc3c(C)c(O)c4c(O)c(c(/C=N/N5CCN(C)CC5)c(O)c4c3C2=O)NC(=O)/C(C)=C\C=C\[C@H](C)[C@H](O)[C@@H](C)[C@@H](O)[C@@H](C)[C@H](OC(C)=O)[C@@H]1C			MIC			H37Rv (streptomycin-resistant)		5 µg/mL
Cc1cc(C)[nH]c(=O)n1			MIC			H37Rv		>100 µg/mL
O=[N+]([O-])c1ccc(-n2cc(CSC3c4ccccc4-c4ccccc43)nn2)cc1	broth dilution		MIC99			H37Rv		>250 µM
COc1ccc(CCC2CCc3ccccc3N2C)cc1OC			MIC			MT9		>100 µg/mL
C=C/C(C)=C/[C@@]1(C)SC(=O)C(C)=C1O			MIC			PMH29:inhA		5 µg/mL
Cc1c(O)cc(I)cc1I			MIC			H37Rv		25 µg/mL
NCC[C@H](O)C(=O)N[C@@H]1C[C@H](N)[C@@H](O[C@H]2O[C@H](CN)[C@@H](O)[C@H](O)[C@H]2O)[C@H](O)[C@H]1O[C@H]1O[C@H](CO)[C@@H](O)[C@H](N)[C@H]1O			MIC			H37Rv		0.5 µg/mL
COc1ccc(C(=O)Oc2ccc(/C=C3\CCCC(CN(C)C)C3=O)cc2)cc1			inhibition		12.5 µg/mL	H37Rv		100%
C/C=C/c1cc2c(c(=O)o1)C(=O)[C@@H](O)[C@H](C)O2	BACTEC		inhibition		12.8 µg/mL	H37Rv		51%
C[C@H]1COc2c(N3CCN(C)CC3)c(F)cc3c(=O)c(C(=O)O)cn1c23			MIC			Isolate 8		4 µg/mL
Cn1[nH]c(=O)c2ccccc2c1=O			MIC			H37Rv		>100 µg/mL
O=C(Nc1ccccc1Cl)c1cnccn1	BACTEC		MIC bound			H37Rv		>6.25 µg/mL
O=C(N/N=C/c1ccc([N+](=O)[O-])s1)c1ccc([N+](=O)[O-])cc1			MIC			H37Rv		<6.25 µg/mL
COC(=O)c1nnn(CC(=O)Nc2ccc(C)c(F)c2)c1C(=O)OC	resazurin		MIC			18b		16 µg/mL
Clc1ccc(-n2cc(CSC3c4ccccc4-c4ccccc43)nn2)cc1	broth dilution		MIC99			H37Rv		74.2 µM
CN(C)CC1CCC/C(=C\c2ccc(OC(=O)/C=C/c3ccc(Br)cc3)cc2)C1=O			EC50			H37Rv		<12.5 µg/mL
CCNC(=O)Nc1ccccc1C			MIC			H37Rv		>100 µg/mL
CCC(CC)n1cc(C(=O)NC(=O)NCCCCCOC(=O)CCCCCCCCCCC(=O)OCCCCCNC(=O)NC(=O)c2cn(C(CC)CC)c(=O)[nH]c2=O)c(=O)[nH]c1=O	BACTEC		MIC bound			H37Rv		>12.5 µg/mL
Cc1cc(C)c(N(CCC(C)C)C(=O)c2ccccc2)c(C)c1			MIC			H37Rv		100 µg/mL
CC(C)N=c1cc2n(-c3ccc(Cl)cc3)c3ccccc3nc-2cc1Nc1ccc(Cl)cc1			MIC			92-0492 MDR (INH RIF-resistant)		0.4 µg/mL
NCC[C@H](O)C(=O)N[C@@H]1C[C@H](N)[C@@H](O[C@H]2O[C@H](CN)[C@@H](O)[C@H](O)[C@H]2O)[C@H](O)[C@H]1O[C@H]1O[C@H](CO)[C@@H](O)[C@H](N)[C@H]1O			MIC			TN4800 (W33)		>256 µg/mL
N[C@@H]1CN(c2c(F)cc3c(=O)c(C(=O)O)cn([C@@H]4C[C@@H]4F)c3c2Cl)CC12CC2	resazurin		MIC			Clinical strain	Gyrase Asp94His	0.25–0.5 µg/mL
CCOC(=O)c1cc(-c2ccccn2)nc2ccccc12			MIC			H37Rv		>100 µg/mL
Cc1ccc(NC(=O)Nc2cccc3ccccc23)cc1Cl	BACTEC		MIC bound			H37Rv		>12.5 µg/mL
Nc1cccc(NC(=O)c2ccccc2)c1			MIC			H37Rv		100 µg/mL
COc1ccc(CCc2cc(OC)c3ccccc3n2)cc1OC			MIC			MT9		155 µg/mL
CCCN(CCC)C(=O)c1cnc2ccccc2c1.Cl			MIC			H37Rv		>100 µg/mL
CC(=O)c1nc2ccccc2n1CC(=O)c1ccc([N+](=O)[O-])cc1	resazurin		inhibition		6.25 µg/mL	H37Rv		-12%
CCc1ccc(-n2cc(CS(=O)(=O)C3c4ccccc4-c4ccccc43)nn2)cc1	broth dilution		MIC99			Specimen 192		120 µM
CC(C)(C)C1CCc2onc(C(=O)N3CCCCC3)c2C1	resazurin		MIC			18b		>16 µg/mL
CC(=O)OC[C@]12CCC(C)=C[C@H]1O[C@@H]1[C@@]3(O)N=C(C)O[C@H]3[C@@]2(C)[C@]12CO2	BACTEC		inhibition		12.5 µg/mL	H37Rv		0%
CCC(N)c1cccs1.Cl			MIC			H37Rv		100 µg/mL
C=C(C)[C@@H]1CC[C@@]2(C)[C@H]1[C@H]1CC[C@@H]3[C@@]4(C)CC[C@H](O)C(C)(C)[C@@H]4CC[C@@]3(C)[C@]1(C)C[C@@H]2O	BACTEC		MIC bound			H37Rv		>6.25 µg/mL
O=C(N/N=C/c1cccs1)c1ccc([N+](=O)[O-])cc1			inhibition		6.25 µg/mL	H37Rv		0%
NCC[C@H](O)C(=O)N[C@@H]1C[C@H](N)[C@@H](O[C@H]2O[C@H](CN)[C@@H](O)[C@H](O)[C@H]2O)[C@H](O)[C@H]1O[C@H]1O[C@H](CO)[C@@H](O)[C@H](N)[C@H]1O	broth dilution / resazurin		MIC			MDR4		2 µg/mL
CN(C)CC1CCC/C(=C\c2ccc(OC(=O)/C=C/c3ccccc3)cc2)C1=O			EC50			H37Rv		<12.5 µg/mL
Cc1c(F)c(N2CCNC(C)C2)cc2c1c(=O)c(C(=O)O)cn2C1CC1			MIC50			45 strains (drug-susceptible)		≤0.5 µg/mL
O=C1c2cccc([N+](=O)[O-])c2C(=O)c2cccc([N+](=O)[O-])c21			MIC			H37Rv		>100 µg/mL
CC[C@H]1OC(=O)[C@H](C)[C@@H](O[C@H]2C[C@@](C)(OC)[C@@H](O)[C@H](C)O2)[C@H](C)[C@@H](O[C@@H]2O[C@H](C)C[C@H](N(C)C)[C@H]2O)[C@](C)(OC)C[C@@H](C)C(=O)[C@H](C)[C@@H](O)[C@]1(C)O			MIC			90-0233 (INH SM-RS)		2 µg/mL
C[C@@H]1CN(c2c(F)c(N)c3c(=O)c(C(=O)O)cn(C4CC4)c3c2F)C[C@H](C)N1			MIC			891207		0.1 µg/mL
Cc1cc(O)c2c(c1)C(=O)C13C(=C2O)C(=O)C2C(O)C1C1C(O)C3C(=O)C3=C(O)c4c(O)cc(C)cc4C(=O)C321	BACTEC		MIC bound			H37Rv		>12.5 µg/mL
Cc1ccc(/C=C/C(=O)Oc2ccc(/C=C3\CCC/C(=C\c4ccc(OC(=O)/C=C/c5ccc(C)cc5)cc4)C3=O)cc2)cc1			EC50			H37Rv		>12.5 µg/mL
Cc1cc(O)cc2c1C(=O)CCO2			MIC			H37Rv		>100 µg/mL
CC1=C(c2ccco2)C(c2ccco2)OC1=O	BACTEC		MIC bound			H37Rv		>12.5 µg/mL
Nc1nccc(N2CCOCC2)n1			MIC			H37Rv		>100 µg/mL
NNC(=O)c1ccncc1			MIC			92-0492 MDR (INH RIF-resistant)		5 µg/mL
O=Cc1cc(I)c(O)c(I)c1			MIC			H37Rv		100 µg/mL
NNC(=O)c1ccncc1	resazurin		MIC			18b		0.06 µg/mL
COc1ccc2c(c1)C=CC1OC(C(C)=O)(C(C)=O)C(C=O)=CN21	BACTEC		inhibition		12.5 µg/mL	H37Rv		26%
O=S(=O)(Cc1cn(-c2ccc(Cl)cc2)nn1)C1c2ccccc2-c2ccccc21	broth dilution		MIC99			Specimen 192		119 µM
CCOC(=O)/C=C(\C)OCC			MIC			H37Rv		>100 µg/mL
CN[C@@H]1[C@H](O[C@H]2[C@H](O[C@H]3[C@H](O)[C@@H](O)[C@H](N=C(N)N)[C@@H](O)[C@@H]3N=C(N)N)O[C@@H](C)[C@]2(O)C=O)O[C@@H](CO)[C@H](O)[C@H]1O			MIC			Isolate 12		64 µg/mL
COc1cc(C=O)cc(OC)c1OC			MIC			H37Rv		>100 µg/mL
CC(=O)NC1=NN(C(C)=O)C2(S1)C(=O)N(C)c1ccc(F)cc12	resazurin		MIC			Clinical isolate		8 µg/mL
CO[C@H]1/C=C/O[C@@]2(C)Oc3c(C)c(O)c4c(=O)c(c5oc6cc(N7CCN(CC(C)C)CC7)cc(=O)c6nc5c4c3=C2O)NC(=O)/C(C)=C\C=C\[C@H](C)[C@H](O)[C@@H](C)[C@@H](O)[C@@H](C)[C@H](OC(C)=O)[C@@H]1C		inside macrophages	inhibition		5 µg/mL	Kurata		87.6%
CCC1=CCN2CCC34c5cc(C6(C(=O)OC)CC7CC(CC)CN(CCc8c6[nH]c6ccccc86)C7)c(OC)cc5N(C)C3C(O)(C(=O)OC)C(OC(C)=O)C1C24	BACTEC		inhibition		12.5 µg/mL	H37Rv		-11%
COc1ccc2ncccc2c1-n1c(C)ccc1C			MIC			H37Rv		>100 µg/mL
Cn1cc(NC(=O)c2cc(NC(=O)c3cc(NC=O)cn3C)cn2C)cc1C(=O)NCCC(=N)N			MIC			KM-R		12.8 µg/mL
CC(=O)Oc1ccccc1C(=O)Nc1ncc([N+](=O)[O-])s1	visual reading		MIC			Haarlem spoligotype 50		20 µg/mL
Cc1cc2nc3cc(C)c(N)cc3[n+](-c3ccccc3)c2cc1N.[Cl-]	BACTEC		MIC	VERO		H37Rv		1.6 µg/mL
CO/N=C1\CN(c2nc3c(cc2F)c(=O)c(C(=O)O)cn3C2CC2)CC1CN			MIC90			37 strains (drug-resistant)		>4 µg/mL
NN.NNC(=S)S	BACTEC		MIC			H37Rv		32 µg/mL
CCOc1cc(/C=N/NC(=O)c2ccc(F)cc2)ccc1O			inhibition		6.25 µg/mL	H37Rv		7%